The subject of this test is experimental DIC. The test can be described thus: Effect on experimental DIC and MOF (endotoxin-induced). The conditions noted are these: rat, 4 hours after endotoxin 10 mg/kg, tested form: 2HCl. It is filed as in vivo, SD-rats. On the procedure: [III] Effect on experimental DIC
SD-rats, body weight of about 200 g, were starved overnight. Sodium pentobarbital was intraperioneally administered to anesthetize a rat, and then a cannula was inserted to the femoral vein, and the test substance dissolved in an injective 5% glucose solution was continually infused. Then, 10 minutes from the start of the injection, endotoxin (E. coli 0127:B8, Difco, U.S.) dissolved in physiological saline was injected through the tail vein to an amount of 10 mg/kg body weight, and 4 hours from the administration of endotoxin, the abdomen was opened, blood was obtained from the abdominal aorta, and platelets (Plt), fibrinogen (Fbg), fibrin degradation product (FDP), glutamic oxaloacetic transamirase (GOT), creatinine phosphokinase (CPK), and blood urin nitrogen (BUN) were measured.

Take `CC(=O)c1ccc(NC(=O)[C@H](Cc2ccc(Oc3ccc([N+](=O)[O-])cn3)cc2)NC(=O)C2CCC(CN)CC2)cc1` (stereo partly drawn): under “Dose 10 μg/kg/min infusion”, the BUN was 34 ± 4 mg/dL, the Fbg came out at 117 ± 22 mg/dL, the GOT worked out at 304 ± 37 U/ml and the Plat was 59 ± 8 x 10^4/μl. In addition, for the setting “Dose 100 μg/kg/min infusion”, the BUN amounted to 32 ± 4 mg/dL, the Fbg stood at 147 ± 22 mg/dL, the GOT was 222 ± 56 U/ml and the Plat is given as 53 ± 10 x 10^4/μl. The compound also displayed a CPK (Table 5-1, Dose 100 μg/kg/min infusion) of 25 ± 3 U/1.

The values above are taken from patent EP0369035A1, “AGENT FOR TREATING PANCREATITIS OR THE LIKE” (priority 1988, dated 1989).
